Data source: PubChem BioAssay AID504761 (Drosophila RNAi Screening Center, 2011)

- Purpose: 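Genome-wide fly cell screen for genes dengue virus requires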 (primary screen)
- Cells: D.Mel-2 cells from Drosophila
- Reagents: long dsRNA against Drosophila genes
- Conditions: infection with dengue virus type 2; dose and infection time not stated
- Measurement: 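Cells stained for dengue envelope protein and imaged; percent of infected cells per well on duplicate plates, ranked by infection, with stained nuclei counted for cell number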
- Reading the numbers: infection score: higher = more virus-infected cells; cell count: higher = more cells in the well
- Hit rule: 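Low infection ranks in the two replicates (chance level up to 0.065) followed by a retest with a 1.5-fold or larger significant decrease, p below 0.05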
- Meaning of the calls: active = confirmed: knock-down lowers infection; inactive = not picked or not confirmed
The screen tested about 22,000 reagents; this is an unselected part of those that have a named target and a result. Of all reagents, 116 (0.52%) are marked active. 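Calls depend on retest data that are not deposited; infection was ranked per plate without normalising between plates; the unit of the infection score is not given.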 Raw values vary from plate to plate and are shown uncorrected. Entries without a mark were called inactive. Further read-outs or replicates are left out here. The record does not give: the amount of reagent, the time to read-out.

Knock-down of CG8778 [DRSC07264] resulted in: infection score, replicate 1 = 11.8; cell count, replicate 1 = 6628.
Silencing of ND-75 [DRSC18686] came out at: infection score, replicate 1 = 12.4; cell count, replicate 1 = 5996.
With knock-down of CG17107 [DRSC02575] the results were infection score, replicate 1 = 3.51; cell count, replicate 1 = 6067.
CG17107 [DRSC22627] showed infection score, replicate 1 = 11.9; cell count, replicate 1 = 6040.
For CG17107 [DRSC25263], the entry reads infection score, replicate 1 = 0.98; cell count, replicate 1 = 6209.
For Gclc [DRSC18666], the entry reads infection score, replicate 1 = 9.3; cell count, replicate 1 = 5410.
Against CG31759 [DRSC01230] the deposit lists infection score, replicate 1 = 1.56; cell count, replicate 1 = 6603.
Mur82C [DRSC12011] showed infection score, replicate 1 = 1.32; cell count, replicate 1 = 5391.
Knock-down of Mur82C [DRSC12212] came out at: infection score, replicate 1 = 1.48; cell count, replicate 1 = 5408.
With knock-down of Mur82C [DRSC23420] the results were infection score, replicate 1 = 21.3; cell count, replicate 1 = 5440.
With knock-down of Mdh1 (retired record) [DRSC02846], the record shows infection score, replicate 1 = 21.3; cell count, replicate 1 = 5137.
After knock-down of LysP [DRSC08676], the screen gave infection score, replicate 1 = 9.07; cell count, replicate 1 = 5769.
LysP [DRSC25210] showed infection score, replicate 1 = 5.92; cell count, replicate 1 = 5893.
Knock-down of Osi23 [DRSC15074] gave: infection score, replicate 1 = 11; cell count, replicate 1 = 4861.
For CG7691 [DRSC16287], the entry reads infection score, replicate 1 = 6.66; cell count, replicate 1 = 2971.
For Ctu1 [DRSC07069], the values are infection score, replicate 1 = 3.69; cell count, replicate 1 = 6446.
With knock-down of CG6271 [DRSC16006], the screen gave infection score, replicate 1 = 7.99; cell count, replicate 1 = 5930.
For CG6271 [DRSC25865], the values are infection score, replicate 1 = 0.58; cell count, replicate 1 = 6041.
After knock-down of CG14442 [DRSC25040], the record shows infection score, replicate 1 = 2.39; cell count, replicate 1 = 6446.
Against Cpr30F [DRSC02908] the deposit lists infection score, replicate 1 = 11.4; cell count, replicate 1 = 6290.
Cpr30F [DRSC25531] gave infection score, replicate 1 = 3.93; cell count, replicate 1 = 6239.
kune [DRSC04860] showed infection score, replicate 1 = 9.62; cell count, replicate 1 = 5727.
Silencing of CG12715 [DRSC19492] resulted in: infection score, replicate 1 = 0.29; cell count, replicate 1 = 5432.
For CG12984 [DRSC11693] the deposit lists infection score, replicate 1 = 6.45; cell count, replicate 1 = 6529.
Against CG3184 [DRSC18289] the deposit lists infection score, replicate 1 = 17.6; cell count, replicate 1 = 2366.
CG5098 [DRSC06915] gave infection score, replicate 1 = 11.3; cell count, replicate 1 = 6677.
CG5098 [DRSC24664] scored infection score, replicate 1 = 4.88; cell count, replicate 1 = 6412.

An excerpt from above, reduced to “cell count, replicate 1”.
CG7691 [DRSC16287]	2971
Ctu1 [DRSC07069]	6446
CG6271 [DRSC16006]	5930
